Reference: ChEMBL document CHEMBL5120941 (ACS Med Chem Lett, 2022)

Columns and labels:
Staphylococcus aureus [1] = test: Antibacterial activity against Staphylococcus aureus ATCC 19636 infected Sprague-Dawley rat peritonitis model assessed as increase in animal's survival rate administered orally at 1 hr post-infection and measured after 48 hrs; details: route po
Staphylococcus aureus [2] = test: Antibacterial activity against Staphylococcus aureus ATCC 19636 infected Sprague-Dawley rat peritonitis model assessed as increase in animal's survival rate administered iv at 1 hr post-infection and measured after 48 hrs
Staphylococcus aureus [3] = test: Antibacterial activity against Staphylococcus aureus ATCC 29213 infected ICR mouse thigh infection model assessed as log reduction in bacterial colony forming units administered at 40 mg/kg, po at 2 hrs post-infection and measured at 24 hrs post-infection; details: time 22 hrs
Staphylococcus aureus [4] = test: Antibacterial activity against Staphylococcus aureus ATCC 19636 infected ICR mouse septicemia model assessed as increase in animal's survival rate administered iv at 1 hr post-infection and measured after 48 hrs

Row | Compound | ED50 (Staphylococcus aureus [1]) | ED50 (Staphylococcus aureus [2]) | Activity (Staphylococcus aureus [3]) | ED50 (Staphylococcus aureus [4])
1 | CC(=O)OP(=O)([O-])N(C[C@H]1CN(c2cc(F)c(N3C=CC(=O)CC3)c(F)c2F)C(=O)O1)c1ccon1.[Na+] | 10.3 mg/kg | 10.3 mg/kg | >2 log10CFU | 
2 | CCOP(=O)(O)N(C[C@H]1CN(c2cc(F)c(N3C=CC(=O)CC3)c(F)c2F)C(=O)O1)c1ccon1 |  |  |  | > 30 mg/kg
3 | O=C1C=CN(c2c(F)cc(N3C[C@H](CN(c4ccon4)P(=O)([O-])[O-])OC3=O)c(F)c2F)CC1.[Na+].[Na+] |  |  |  | 10 mg/kg
4 | COP(=O)(O)N(C[C@H]1CN(c2cc(F)c(N3C=CC(=O)CC3)c(F)c2F)C(=O)O1)c1ccon1 |  |  |  | > 20 mg/kg
